Experimental findings from patent US20250333484A1 are described below.

In this experiment the target is EBOV GP (Mayinga variant U31033) on pseudotyped lentivirus particles (Ebola virus, Mayinga variant), Q05320. Briefly: cell-based or functional assay.

B1: mAbA09 (S1-4-A09, parental IgG) (protein)
chain 1: QVQLQESGPGLVKPSETLSLTCVVSGGILSSFYWNWIRQPPGKGLEWIGNIYYSGSPNYNASFQSRVAISVDTSKNQISLNLKSVTAADTAMYYCVRASRAYLWGSYRPTALDLWGQGSLVTVSS
chain 2: SYELTQPPSVSVSPGQTATITCSGDKLGDKYTSWFQQRPGQSPLLVIYQDNKRPSGLPARFSGSNSGNTATLTISGTQAMDEADYLCQVWDSGAVFGGGTKLTVL
B1 registered a neutralization of pseudotyped lentivirus particles (luciferase, HEK293T cells) of 6.67e-08 mol/L.

B2: mAb114 (parental IgG) (protein)
chain 1: EVQLVESGGGLIQPGGSLRLSCAASGFALRMYDMHWVRQTIDKRLEWVSAVGPSGDTYYADSVKGRFAVSRENAKNSLSLQMNSLTAGDTAIYYCVRSDRGVAGLFDSWGQGILVTVSSAS
chain 2: DIQMTQSPSSLSASVGDRITITCRASQAFDNYVAWYQQRPGKVPKLLISAASALHAGVPSRFSGSGSGTHFTLTISSLQPEDVATYYCQNYNSAPLTFGGGTKVEIKSSAS
Consider B2, for which the neutralization of pseudotyped lentivirus particles (luciferase, HEK293T cells) is 6.67e-08 mol/L.
